The record followed here is patent US9402819B2, “Anti-HIV compound and preparation method and use thereof” (Sichuan University, priority 2012, dated 2016).

The term CC50 denotes the concentration that lowers cell viability or growth by half. Lower therefore signals harm at low concentration.

The nature of the series: Cytotoxicity (CC50) in C8166 cells. Type of series: cell-based. The note with it: human.

In brackets after ≈: the same amount, converted by molar mass.

The compound `COc1ccccc1NC(=O)c1cc(N)ccc1Sc1ccc([N+](=O)[O-])cc1` [Compound 24, 5-amino-N-(2-methoxyphenyl)-2-((4-nitrophenyl)thio)benzamide] returned a CC50 of 172 µg/mL (≈ 435 µM).
